Test results from patent US10130714B2 (priority 2012, dated 2018).

Tested on: A/WSN/1933 (H1N1) virus
Assay: Cytopathic prevention assay in MDCK cells, H1N1
Conditions: read-out: EC50 (nM), anti-influenza activity, table data are ranges or single assay results

Molecule COc1ccc2cc([C@H](C)C(=O)OCCCNC(=O)O[C@@H]([C@@H]3OC(C(=O)O)=C[C@H](NC(=N)N)[C@H]3NC(C)=O)[C@H](O)CO)ccc2c1 has an EC50 of 0.8 nM.

Structures were worked out from names or drawings and are uncertain.
